Assay [1] has as its target Human immunodeficiency virus type 1 reverse transcriptase (Human immunodeficiency virus 1, UniProt Q72547, Y181C). Briefly: Inhibitory activity against HIV-1 Y181C reverse transcriptase.
The target in assay [2] is Human immunodeficiency virus type 1 reverse transcriptase (Human immunodeficiency virus 1, UniProt Q72547, Y188L). Briefly: Inhibitory activity against HIV-1 Y188L reverse transcriptase.

The structures appear in SMILES notation.

Consider two compounds from ChEMBL document CHEMBL1131307, “Novel nonnucleoside inhibitors of HIV-1 reverse transcriptase. 8. 8-Aryloxymethyl- and 8-arylthiomethyldipyridodiazepinones” (J Med Chem, 1998).

Turning to `CCN1c2ncc(COc3ccccc3F)cc2C(=O)N(C)c2ccc(Cl)nc21`, the IC50 in assay [1] was found to be 0.57 µM.
As to `CCN1c2ncc(COc3cccc(O)c3)cc2C(=O)N(C)c2ccc(Cl)nc21`, the results for the IC50 in assay [2] and in assay [1] were 0.78 µM and 0.25 µM, respectively.

A word on the IC50: it is the point on the concentration scale where inhibition reaches its midpoint.
